Results of unrelated studies side by side (data: NIAID ChemDB).

Shared fields: tests in culture; species: Mycobacterium tuberculosis

MIC bound: limit read from a one-dose screen.

{"structure": "c1cc2c[n+](c1)CCCCCCCCCCCCCc1ccc[n+](c1)CCCCCCCCCCCC2", "strain or isolate": "H37Rv", "endpoint": "MIC", "value": "8 µg/mL"}
{"structure": "C[C@@H](O)[C@H]1C(=O)N2C(C(=O)O)=C(SC3CN(C4=NCCS4)C3)S[C@H]12", "endpoint": "MIC", "method": "broth dilution", "value": "16–32 µg/mL"}
{"structure": "CC(C)C1C=C2C(C(=O)C1=O)[C@@]1(C)CCCC(C)(C)[C@@H]1C[C@@H]2O", "strain or isolate": "H37Rv", "endpoint": "EC50", "value": "<12.5 µg/mL"}
{"structure": "N#Cc1cnc(C(N)=O)c(NC2CCCCCC2)n1", "strain or isolate": "H37Rv", "endpoint": "MIC", "value": ">100 µg/mL"}
{"structure": "CNC(=O)CC1NC(=O)c2nc(sc2COC)C(C(C)C)NC(=O)c2csc(n2)-c2ccc(-c3nc(C4=NC(C(=O)N5CCCC5C(N)=O)CO4)cs3)nc2-c2csc(n2)-c2csc(n2)C(C(O)c2ccccc2)NC(=O)CNC(=O)c2nc1sc2C", "endpoint": "MIC", "value": "1 µg/mL"}
{"structure": "C/C=C/Nc1nc(C(N)=S)cnc1C(N)=O", "strain or isolate": "H37Rv", "endpoint": "MIC", "value": "25 µg/mL"}
{"structure": "COC(=O)CSC1=C(C(=O)O)N2C(=O)[C@H]([C@@H](C)O)[C@H]2[C@H]1C", "endpoint": "MIC", "method": "broth dilution", "value": "1–2 µg/mL"}
{"structure": "CCCCCCOc1ccc(NC(=O)OCCN2CCCCC2)cc1", "strain or isolate": "My 331/88", "endpoint": "MIC", "value": "16 µM"}
{"structure": "Cc1c(CN(C)c2cccc3c2CCCC3)cnc2nc(N)nc(N)c12", "strain or isolate": "H37Rv", "endpoint": "MIC", "value": ">12.5 µg/mL"}
{"structure": "CC(C)(C)c1cc(C(C)(C)C)c2oc(-c3ccccc3C(F)(F)F)nc2c1", "strain or isolate": "H37Rv", "endpoint": "inhibition", "dose": "6.25 µg/mL", "method": "BACTEC", "value": "<90%"}
{"structure": "CC(=O)NC[C@H]1CN(c2ccc(N3CCOCC3)c(F)c2)C(=O)O1", "strain or isolate": "H37Rv", "endpoint": "MIC", "value": "0.5 µg/mL"}
{"structure": "CCOC(=O)/N=c1\\nc2ccn(C)c2c(NC(=O)OCC)s1", "strain or isolate": "H37Rv", "endpoint": "MIC bound", "method": "BACTEC", "value": ">12.5 µg/mL"}
{"structure": "c1cc2c[n+](c1)CCCCCCCCCCCCCCc1ccc[n+](c1)CCCCCCCCCC2", "strain or isolate": "H37Rv", "endpoint": "MIC", "value": "8 µg/mL"}
{"structure": "Cn1c(=O)n2n(c1=O)C1C3C4C5C3C13COCC53C42", "strain or isolate": "H37Rv", "endpoint": "inhibition", "dose": "6.25 µg/mL", "method": "resazurin", "value": "-13%"}
{"structure": "Cc1ccc(C(F)(F)F)cc1CNCc1cc(C(=N)C(C)C)c(Nc2ccccc2)[nH]c1=O", "strain or isolate": "H37Rv", "endpoint": "MIC", "method": "broth dilution", "value": "0.4 µM"}
{"structure": "CCN(CC)c1nc(C(N)=S)cnc1C(N)=O", "strain or isolate": "H37Rv", "endpoint": "MIC", "value": "50 µg/mL"}
{"structure": "CCCCCCCCCC(=O)C1=C(O)[C@H](CCO)NC1=O", "strain or isolate": "H37Rv (ATCC 27294)", "endpoint": "MIC", "value": "5 µg/mL"}
{"structure": "O=c1cc(-c2cnn(Cc3ccc(OC(F)(F)F)cc3)c2)[nH]c2ccccc12", "strain or isolate": "H37Rv", "endpoint": "inhibition", "dose": "5 µM", "method": "fluorescence", "value": "38.7%"}
{"structure": "N/C(=N\\NC(=O)c1ccccc1)SCc1cccc(Cl)c1", "strain or isolate": "H37Rv", "endpoint": "MIC", "value": ">100 µg/mL"}
{"structure": "CCN(CC)CCCC(C)Nc1ccnc2cc(Cl)ccc12", "cells": "human red blood cells", "strain or isolate": "H37Rv", "endpoint": "EC50", "method": "broth dilution / radiometric", "value": "0.03 µM"}
{"structure": "CO[C@H]1/C=C/O[C@@]2(C)Oc3c(C)c(O)c4c(=O)c(c5oc6cc(N7CCN(CC(C)C)CC7)cc(=O)c6nc5c4c3=C2O)NC(=O)/C(C)=C\\C=C\\[C@H](C)[C@H](O)[C@@H](C)[C@@H](O)[C@@H](C)[C@H](OC(C)=O)[C@@H]1C", "strain or isolate": "2227 (rifampicin-resistant)", "endpoint": "MIC", "value": "0.062 µg/mL"}
{"structure": "CCCSC1=C(C(=O)O)N2C(=O)[C@H]([C@@H](C)O)[C@H]2S1", "endpoint": "MIC", "method": "broth dilution", "value": "0.5–1 µg/mL"}
{"structure": "Cc1c(CNc2cccc3c2CCCC3)cnc2nc(N)nc(N)c12", "strain or isolate": "H37Ra", "endpoint": "MIC", "value": ">64 µg/mL"}
{"structure": "CCSC1=C(C(=O)O)N2C(=O)[C@H]([C@@H](C)O)[C@H]2S1", "endpoint": "MIC", "method": "broth dilution", "value": "8–16 µg/mL"}
{"structure": "CCCCCOc1cccc(NC(=O)OC(COCC)CN2CCCCC2)c1", "strain or isolate": "My 331/88", "endpoint": "MIC", "value": "16 µM"}
{"structure": "CS[C@@]1(Cc2ccccc2)NC(=O)[C@@](Cc2ccccc2)(SC)N(C)C1=O", "strain or isolate": "H37Ra", "endpoint": "MIC", "value": "100 µg/mL"}
{"structure": "CS/C(N)=N/NC(=O)c1ccc(F)cc1", "strain or isolate": "H37Rv", "endpoint": "MIC", "value": ">100 µg/mL"}
{"structure": "O=C(CSc1nnc(-c2ccccn2)s1)N/N=c1/scc(-c2cccc([N+](=O)[O-])c2)n1-c1ccccc1", "strain or isolate": "Clinical isolate 180", "endpoint": "MIC", "value": "80 µg/mL"}
{"structure": "NNC(=O)c1cccs1", "mutations": "pMV361::katG", "strain or isolate": "H37Rv", "endpoint": "MIC99.9", "method": "visual reading", "value": "≤5 µg/mL"}
{"structure": "CC1(C)[C@H]2CC[C@@H](CNCCNCC(c3ccccc3)c3ccccc3)[C@@H]1C2", "endpoint": "MIC", "value": "1.25 µg/mL"}
{"structure": "c1ccc(N=Nc2ccc(NCCCN3CCCCC3)c3c2CCCC3)cc1", "strain or isolate": "H37Rv", "endpoint": "MIC", "value": "≤0.1 µg/mL"}
{"structure": "CCCCCOc1ccc(NC(=O)OCCN2CCCCC2)cc1", "strain or isolate": "My 331/88", "endpoint": "MIC", "value": "62.5 µM"}
{"structure": "Nc1nc(-n2cc(C(=O)O)c(=O)c3cc(F)c(N4CC(O)C4)c(Cl)c32)c(F)cc1F", "strain or isolate": "22 strains (rifampicin-susceptible)", "endpoint": "MIC50", "value": "0.39 µg/mL"}
{"structure": "CO/N=C(/C(=O)N[C@@H]1C(=O)N2C(C(=O)[O-])=C(C[N+]3(C)CCCC3)CS[C@H]12)c1csc(N)n1", "strain or isolate": "13 strains", "endpoint": "inhibition", "dose": "8 µg/mL", "value": "0%"}
{"structure": "O=[N+]([O-])c1ccc(/C=N/Nc2nc(Nc3ccccc3)nc(Nc3ccccc3)n2)o1", "strain or isolate": "H37Rv", "endpoint": "MIC100", "value": "0.0625 µg/mL"}
{"structure": "NC(=S)NNC(=O)c1ccccc1", "strain or isolate": "H37Rv", "endpoint": "MIC", "value": ">100 µg/mL"}
{"structure": "O=C(COC(=O)c1cccc(S(=O)(=O)N2CCc3ccccc32)c1)NNC(=O)c1cccs1", "strain or isolate": "H37Rv", "endpoint": "MIC100", "value": "2 µg/mL"}
{"structure": "c1cc2c[n+](c1)CCCCCCCCCCCCc1ccc[n+](c1)CCCCCCCCCC2", "strain or isolate": "H37Rv", "endpoint": "MIC", "value": "8 µg/mL"}
{"structure": "CCCCCOc1ccccc1NC(=O)OC(C)CN1CCCCC1", "strain or isolate": "My 331/88", "endpoint": "MIC", "value": "125 µM"}
{"structure": "CO[C@H]1/C=C/O[C@@]2(C)Oc3c(C)c(O)c4c(O)c(c(/C=N/N5CCN(C)CC5)c(O)c4c3C2=O)NC(=O)/C(C)=C\\C=C\\[C@H](C)[C@H](O)[C@@H](C)[C@@H](O)[C@@H](C)[C@H](OC(C)=O)[C@@H]1C", "strain or isolate": "23 strains (rifampicin-resistant)", "endpoint": "MIC50", "value": "50 µg/mL"}
{"structure": "NC(=O)c1ncc(C(N)=S)nc1Nc1ccccc1", "strain or isolate": "H37Rv", "endpoint": "MIC", "value": "50 µg/mL"}
{"structure": "NC(=S)NNC(=O)c1ccc([N+](=O)[O-])cc1", "strain or isolate": "H37Rv", "endpoint": "MIC", "value": ">100 µg/mL"}
{"structure": "CCCCCCCOc1ccc(NC(=O)OCCN2CCCCC2)cc1", "strain or isolate": "My 331/88", "endpoint": "MIC", "value": "16 µM"}
{"structure": "CSc1ccc(-c2nc3cc(C(C)(C)C)cc(C(C)(C)C)c3o2)cc1", "strain or isolate": "H37Rv", "endpoint": "inhibition", "dose": "6.25 µg/mL", "method": "BACTEC", "value": "<90%"}
{"structure": "Cc1ccc(C(F)(F)F)cc1CNCc1cc(C(=N)C2CC2)c(Nc2ccccc2)[nH]c1=O", "strain or isolate": "H37Rv", "endpoint": "MIC", "method": "broth dilution", "value": "0.1 µM"}
{"structure": "CC1=CC(=O)c2c(O)cccc2C1=O", "strain or isolate": "H37Rv", "endpoint": "MIC", "value": "<12.5 µg/mL"}
{"structure": "CC[C@@H](CO)NCCN[C@@H](CC)CO", "mutations": "MDR", "strain or isolate": "8666/2010", "endpoint": "MIC99", "method": "broth dilution", "value": "8 µM"}
{"structure": "Cc1cccc(-c2cs/c(=N/NC(=O)CSc3nnc(-c4ccccn4)s3)n2-c2ccccc2)c1", "strain or isolate": "Clinical isolate 331", "endpoint": "MIC", "value": "40 µg/mL"}
{"structure": "COc1cc(OC)cc(N(C)Cc2cnc3nc(N)nc(N)c3c2C)c1", "strain or isolate": "H37Rv", "endpoint": "MIC", "value": "3.13 µg/mL"}
{"structure": "CC(C)(C)c1cc(C(C)(C)C)c2oc(/C=C/c3ccccc3)nc2c1", "strain or isolate": "H37Rv", "endpoint": "inhibition", "dose": "6.25 µg/mL", "method": "BACTEC", "value": "100%"}
{"structure": "CCOC(=O)c1c(-c2ccc(Cc3ccc(OC(F)(F)F)cc3)cc2)[nH]c2ccccc2c1=O", "strain or isolate": "H37Rv", "endpoint": "inhibition", "dose": "5 µM", "method": "fluorescence", "value": "0%"}
{"structure": "Cc1cc(O)c2c(c1)[C@H](O)CCC2=O", "endpoint": "MIC", "value": ">530 µg/mL"}
{"structure": "CCCCCCOc1ccccc1NC(=O)OC(C)CN1CCCCC1", "strain or isolate": "My 331/88", "endpoint": "MIC", "value": "32 µM"}
{"structure": "CN1C(=O)[C@]2(CO)NC(=O)[C@@]1(Cc1ccccc1)SS[C@@]1(CO)NC(=O)[C@](Cc3ccccc3)(NC1=O)SS2", "strain or isolate": "H37Ra", "endpoint": "MIC", "value": "12.5 µg/mL"}
{"structure": "Cc1[nH]c2ccccc2c(=O)c1-c1ccc(Oc2ccc(OC(F)(F)F)cc2)cc1", "strain or isolate": "H37Rv", "endpoint": "inhibition", "dose": "5 µM", "method": "fluorescence", "value": "0%"}
{"structure": "O=C(CSc1nnc(-c2ccccn2)s1)N/N=c1/scc(-c2ccccc2)n1-c1cccc(Br)c1", "strain or isolate": "H37Rv", "endpoint": "MIC", "value": ">80 µg/mL"}
{"structure": "COc1ccc2c(=O)c(C)c(-c3ccc(Oc4ccc(OC(F)(F)F)cc4)nc3)[nH]c2c1", "strain or isolate": "H37Rv", "endpoint": "inhibition", "dose": "5 µM", "method": "fluorescence", "value": "87.4%"}
{"structure": "N[C@@H]1CN(c2c(F)cc3c(=O)c(C(=O)O)cn([C@@H]4C[C@@H]4F)c3c2Cl)CC12CC2", "endpoint": "MIC", "value": "0.125–0.5 µg/mL"}
{"structure": "CCCCCCOc1ccccc1NC(=O)OCCN1CCCCC1", "strain or isolate": "My 331/88", "endpoint": "MIC", "value": "32 µM"}
{"structure": "CCc1c(CNc2cc(OC)ccc2OC)cnc2nc(N)nc(N)c12", "strain or isolate": "H37Rv", "endpoint": "MIC", "value": ">12.5 µg/mL"}
{"structure": "CN[C@@H]1[C@H](O[C@H]2[C@H](O[C@H]3[C@H](O)[C@@H](O)[C@H](N=C(N)N)[C@@H](O)[C@@H]3N=C(N)N)O[C@@H](C)[C@]2(O)C=O)O[C@@H](CO)[C@H](O)[C@H]1O", "strain or isolate": "H37Rv", "endpoint": "MIC", "value": "0.3 µg/mL"}
{"structure": "O=C(CSc1nnc(-c2ccccn2)s1)N/N=c1/scc(-c2ccc([N+](=O)[O-])cc2)n1-c1ccccc1", "strain or isolate": "H37Rv", "endpoint": "MIC", "value": "40 µg/mL"}

For reference, 7 entries again:

| structure | cells | mutations | strain or isolate | endpoint | dose | method | value |
|---|---|---|---|---|---|---|---|
| CS/C(N)=N/NC(=O)c1ccc(F)cc1 | - | - | H37Rv | MIC | - | - | >100 µg/mL |
| C[C@@H](O)[C@H]1C(=O)N2C(C(=O)O)=C(SC3CN(C4=NCCS4)C3)S[C@H]12 | - | - | - | MIC | - | broth dilution | 16–32 µg/mL |
| CCCCCOc1ccccc1NC(=O)OC(C)CN1CCCCC1 | - | - | My 331/88 | MIC | - | - | 125 µM |
| c1cc2c[n+](c1)CCCCCCCCCCCCc1ccc[n+](c1)CCCCCCCCCC2 | - | - | H37Rv | MIC | - | - | 8 µg/mL |
| CO/N=C(/C(=O)N[C@@H]1C(=O)N2C(C(=O)[O-])=C(C[N+]3(C)CCCC3)CS[C@H]12)c1csc(N)n1 | - | - | 13 strains | inhibition | 8 µg/mL | - | 0% |
| Cc1[nH]c2ccccc2c(=O)c1-c1ccc(Oc2ccc(OC(F)(F)F)cc2)cc1 | - | - | H37Rv | inhibition | 5 µM | fluorescence | 0% |
| c1cc2c[n+](c1)CCCCCCCCCCCCCCc1ccc[n+](c1)CCCCCCCCCC2 | - | - | H37Rv | MIC | - | - | 8 µg/mL |

ECn is the concentration giving n% inhibition of infection, replication or growth. An empty or dashed field is not shown. Conditions beyond the fields shown may differ between rows. Two numbers with a dash give a range or band. Inhibition is in % at the dose shown (toxicity tests: loss of growth or viability). MIC50, MIC90 and the like: level of inhibition, or share of isolates inhibited.